Measured data: PubChem BioAssay AID504761 (Drosophila RNAi Screening Center, 2011)

- Test: 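Insect host genes that dengue virus relies on to spread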 (primary screen)
- Cells: D.Mel-2 cells from Drosophila
- Reagents: long dsRNA against Drosophila genes
- Treatment: infection with dengue virus type 2; dose and infection time not stated
- Measurement: 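Per well on two replicate plates, imaging gave the percent of cells positive for viral envelope protein, ranked by infection, and a nuclear count of cells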
- Scale: infection score: higher = more virus-infected cells; cell count: higher = more cells in the well
- Hit rule: 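Low infection ranks in the two replicates (chance level up to 0.065) followed by a retest with a 1.5-fold or larger significant decrease, p below 0.05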
- Calls: active = confirmed: knock-down lowers infection; inactive = not picked or not confirmed
In all, the deposit lists about 22,000 reagents; below is an unselected part of those that have a named target and a result. Over the whole deposit, 116 (0.52%) got an active call. 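Calls depend on retest data that are not deposited; infection was ranked per plate without normalising between plates; the unit of the infection score is not given.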 Raw values are not corrected between plates. A number with no mark means an inactive call. Reagents against one gene are numbered here. Further read-outs or replicates are left out here. No sequences are given here. Not stated in the record: the amount of reagent, the time to read-out.

The first 2 entries as a preview:
ppk25 (pickpocket 25) #1 — infection score, replicate 1: 13.2; cell count, replicate 1: 4686
ppk25 (pickpocket 25) #2 — infection score, replicate 1: 2.36; cell count, replicate 1: 6612

The listing, from the start:
ppk25 (pickpocket 25) #1 — infection score, replicate 1: 13.2; cell count, replicate 1: 4686
ppk25 (pickpocket 25) #2 — infection score, replicate 1: 2.36; cell count, replicate 1: 6612
Jarid2 (Jumonji, AT rich interactive domain 2) — infection score, replicate 1: 7.78; cell count, replicate 1: 6539
IscU (Iron-sulfur cluster assembly enzyme) — infection score, replicate 1: 2.21; cell count, replicate 1: 5849
CG11192 #1 — infection score, replicate 1: 5.22; cell count, replicate 1: 5780
CG11192 #2 — infection score, replicate 1: 4.92; cell count, replicate 1: 6733
Past1 (Putative Achaete Scute Target 1) — infection score, replicate 1: 1.09; cell count, replicate 1: 6801
E(Pc) (Enhancer of Polycomb) #1 — infection score, replicate 1: 10.1; cell count, replicate 1: 4238
E(Pc) (Enhancer of Polycomb) #2 — infection score, replicate 1: 20.3; cell count, replicate 1: 5043
otk2 (off-track2) — infection score, replicate 1: 6.7; cell count, replicate 1: 6571
Spf45 — infection score, replicate 1: 11.3; cell count, replicate 1: 6679
gce (germ cell-expressed bHLH-PAS) #1 — infection score, replicate 1: 15.3; cell count, replicate 1: 6521
gce (germ cell-expressed bHLH-PAS) #2 — infection score, replicate 1: 17.9; cell count, replicate 1: 4430
gce (germ cell-expressed bHLH-PAS) #3 — infection score, replicate 1: 1.58; cell count, replicate 1: 6155
gce (germ cell-expressed bHLH-PAS) #4 — infection score, replicate 1: 5; cell count, replicate 1: 5855
